Where a chain is given by its changes, count along the chain named. Human monoclonal antibodies against the spike receptor-binding domain (heavy:light variable regions). IC50 against pseudoviruses bearing the spike of naturally observed variants; lower = stronger; >10 µg/ml means not reached at the top dose. No active / inactive call. The stated detection limit is 0.0005 µg/ml; values near or below 0.001 µg/ml lie at the floor of the assay.
B1: BD56-1524 (protein)
chain 1: QLQLQESGPGLVKPSETLSLTCTVSGGSITSSHYFWGWIRQPPGKGLEWIATMTYGGNSYYKPSLKSRLIISLDTSKDHISLRLSSVTAADTAVYYCVGNQWLRGPFDFWGQGILVTVSS
chain 2: NFMLTQPHSVSESPGKTVTISCTGSSGYIASNYVQWYQQRPGSAPTTLIYEDNQRPSGVPDRFSGSIDSSSNSASLTISGLKTEDEASYYCQSFDSNDLWVFGGGTKLTVL
B2: BD56-1475 (protein)
chain 1: EVQLVESGGGLVQPGGSLRLSCAVSGFTVSSNYMSWVRQAPGKGLEWVSVIYPGGSTFYADSVKGRFTISRHNSKNTLYLQMNSLRLEDTAIYYCARDPYSRPVSWGQGTLVTVSS
chain 2: DIQMTQSPSSLSASVGDRVTITCQASQDIRNYLNWYQQKPGKAPKVLIYDASNLETGVPSRFSGSGSGTDFTFTISSLQPEDIATYYCQQYDNLPITFGQGTRLEIK
B3: BD56-1478 (protein)
chain 1: QVHLQESGPGLVRPSETLSLTCSVSGGSISHYYWSWIRQSPGKGLEWIGYVFHSGSTNYNPSLRSRVTISVDTSKNQFSLKLRSVTAADTALYYCARDRGHSSGWPDALDIWGQGTMVTVSS
chain 2: B2 chain 2 with S9P, R30T, V46L, A51V, S65R, L94V, I96W, R103K, L104V
B4: BD56-1527 (protein)
chain 1: EVQLVESGGGLVQPGRSLRLSCTASGITVDNYAMHWVRQAPGKGLEWVSGINWNGDGTGYADSVKGRFTISRDNARNSLYLQMNSLRVEDTAFYFCTKNRVGYNWNYQAVFDPWGQGTLVTVSS
chain 2: EIVLTQSPGTLSLSPGERATLSCRASQTVSSRYLAWYQQKPGQAPRLLIYGASSRATGIPDRFSGSGSGTDFTLTISRLEPEDFAVYYCQQYSRSPGSFGQGTKLDIK
B5: BD56-1481 (protein)
chain 1: QVQLVQSGAEVKKPGSSVRVSCKASGGTFSNYAISWVRQAPGQGLEWMGRIIPMFGISNYAQKFQGKVIFTADKSTSTAYMELSSLRSEDTAIYYCARGSYYSDTSGYFLDHWGQGTLVTVSA
chain 2: EIVLTQSPGTLSLSPGERATLSCRASQSVGGSYLAWYQQKPGQAPSLLIYGASNRATGVPDRFSGSGSGTDFTLTISRLEPEDFAVYYCHQYAGAPRTFGQGTKVEIK
B6: BD56-1543 (protein)
chain 1: QVQLVQSGAEVKKPGSSVKVICKASGGTFSSYAISWVRQAPGQGLEWMGGIIPILGTSRYAQKFQGRVTVTADESTSTAYMELSSLRSEDTAVYWCARELGYSGSGSNWYFDLWGRGTLVTVSS
chain 2: QSVLTQPPSVSGAPGQRVTISCTGSSSNIGAGYDVHWYQQLPGTAPKLLIYGNSNRPSGVPDRFSGSKSGTSASLAITGLQAEDEADYYCQSYDSSLSGSVFGGGTKLTVL
B7: BD56-1517 (protein)
chain 1: EVQLVESGGGLVQPGRSLRLSCVVSGFTFDDYAIHWVRQAPGKGLEWVSGISWNGGTIGYADSVRGRFIISRDNAKNSLYLQMNSLRVEDTALYYCAKERGLTERTYYDMDIWGQGTTVTVSS
chain 2: QSALTQPASVSGSPGQSITISCTGTSSDVGVYNYVSWYQQLPGKAPKLMISDVSKRPSGVSHRFSGSKSGNTASLSISGLQAEDEADYYCSSYTSHSTVIFGGGTKLTVL
B8: BD56-1515 (protein)
chain 1: EVQVVESGGGLVKPGGSLRLSCAASGFTLSSYTMNWVRQAPGKGLEWVSSISGTSTHIFYSDSVKGRFTISRDNTKNSLFLQMNSLRVDDTAVYYCARDSEWGGDIVTGSSHLFDSWGQGTLVTVSS
chain 2: DIQMTQSPASLSAPVRGRVTITCRAGQTIGTSLNWYQQKPGKAPKLLIYAAFNLHSGVPSRFSGSGSGTHFTLTISSLQPEDFATYYCQQSYSAPPTFGGGTKVEIK
B9: BD56-1544 (protein)
chain 1: QVQLQESGPGLVKPSQTLSLTCTVSGDSISSGSYYWSWIRQHPEKGLEWIGYIYYSGSTYYNPSLKTRLSMSLDISKNQFSLRLSSVTAADTAVYYCVRERILMVLTTTPYYYGVDVWGQGTTVTVSS
chain 2: DIVMTQSPATLSVSPGERATLSCRASQSIGSDLAWYQQRPGQAPRLLIYGASTRATGVPARFSGSGSGTDFTLTISSLQSEDFAIYYCQRYNNWPPWTFGQGTKVEIK
B10: COV2-2531 (protein)
chain 1: QVQLQESGPGLVKPSETLSLTCSVSGGSIRSYFWNWVRQPPGKGLEWIGYIYYSGSTNYKPSFKSRVTISLDTSKNQISLKLSSVTAADTAVYYCARATWLRDAFGIWGQGTMVTVSS
chain 2: NFMLTQPHSVSESPGKTVTISCTGNSGSIASNYVQWYQQRPGSAPTTVIYEDSQRPSGVPDRFSGSIDSSSNSASLTISGLKTEDEADYYCQSFDSGNVVFGGGTKLTVL
B11: BD56-1538 (protein)
chain 1: QVQLVQSGAEVKKPGASVKVSCKASGYTFINYYIHWVRQAPGQGLEWMGIINPSGDATSYAQKFQGRVTMTGDTSTSTVYMALTSLRSDDTAVYYCARGLIVPRWRHTEFDPWGQGTLVTVSS
chain 2: QSVLTQPPSVSAAPGQKVTISCSGSSSNIGDNYVSWYQQLPGTAPKLLIYDNNKRPSGIPDRFSGSKSATSATLGIAGLQTGDEADYYCGTWDSRLSSGVFGGGTKLTVL
B12: BD56-1534 (protein)
chain 1: QVQLVESGGGVVQPGRSLRLSCAASGFTFSTYGMHWVRQAPGKGLEWVAVIWYDGSNKYYADSVKGRFTISRDNSKNTLYLQVNSLRAEDTAVYYCAKAGGTYCSGGDCYSAYFDYWGQGTLVTVSS
chain 2: EIVLTQSPGTLSLSPGERATLSCRASQSVSSSYLAWYQQKRGQAPRLLISGASSRAAGIPDRFSGSGSGTDFTLTISRLEPEDFAVYYCQQYVTSPLTFGGGTKVEIK

Columns and labels:
Experiment in all cases: pseudovirus neutralization IC50; higher = weaker neutralization
[1] = target: SARS-CoV-2 Omicron BA.1 spike pseudovirus
Experimental: (§1)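 Single-round VSV luciferase pseudovirus mixed with antibody dilutions for 1 h and put on Huh-7 cells for about a day; IC50 from the dose curve.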

[2] = target: SARS-CoV-2 Omicron BA.2 spike pseudovirus
Experimental: as §1

[3] = target: SARS-CoV-2 Omicron BA.2.75 spike pseudovirus
Experimental: as §1

[4] = target: SARS-CoV-2 Omicron BA.5 spike pseudovirus
Experimental: as §1

[5] = target: SARS-CoV-2 Omicron BQ.1.1 spike pseudovirus
Experimental: as §1

[6] = target: SARS-CoV-2 Omicron XBB spike pseudovirus
Experimental: as §1

[7] = target: SARS-CoV-2 early D614G spike pseudovirus
Experimental: as §1

Binder | pseudovirus neutralization IC50 [1] | pseudovirus neutralization IC50 [2] | pseudovirus neutralization IC50 [3] | pseudovirus neutralization IC50 [4] | pseudovirus neutralization IC50 [5] | pseudovirus neutralization IC50 [6] | pseudovirus neutralization IC50 [7]
B1 | > 10 µg/mL | > 10 µg/mL | > 10 µg/mL | > 10 µg/mL | > 10 µg/mL | > 10 µg/mL | 0.125 µg/mL
B2 | 0.0999 µg/mL | 0.146 µg/mL | > 10 µg/mL | > 10 µg/mL | > 10 µg/mL | > 10 µg/mL | 0.0104 µg/mL
B3 | 0.162 µg/mL | 0.211 µg/mL | 0.148 µg/mL | 2.44 µg/mL | 1.75 µg/mL | 1.96 µg/mL | 0.0108 µg/mL
B4 | > 10 µg/mL | > 10 µg/mL | > 10 µg/mL | > 10 µg/mL | > 10 µg/mL | > 10 µg/mL | > 10 µg/mL
B5 | > 10 µg/mL | > 10 µg/mL | > 10 µg/mL | > 10 µg/mL | > 10 µg/mL | > 10 µg/mL | 0.00265 µg/mL
B6 | 0.121 µg/mL | 0.0575 µg/mL | 0.106 µg/mL | > 10 µg/mL | > 10 µg/mL | > 10 µg/mL | > 10 µg/mL
B7 | 0.519 µg/mL | 0.341 µg/mL | 0.149 µg/mL | > 10 µg/mL | > 10 µg/mL | 1.67 µg/mL | 0.218 µg/mL
B8 | > 10 µg/mL | > 10 µg/mL | > 10 µg/mL | > 10 µg/mL | > 10 µg/mL | > 10 µg/mL | > 10 µg/mL
B9 | > 10 µg/mL | > 10 µg/mL | > 10 µg/mL | > 10 µg/mL | > 10 µg/mL | > 10 µg/mL | > 10 µg/mL
B10 | > 10 µg/mL | > 10 µg/mL | > 10 µg/mL | > 10 µg/mL | > 10 µg/mL | > 10 µg/mL | 1.01 µg/mL
B11 | > 10 µg/mL | > 10 µg/mL | > 10 µg/mL | > 10 µg/mL | > 10 µg/mL | > 10 µg/mL | > 10 µg/mL
B12 | > 10 µg/mL | > 10 µg/mL | > 10 µg/mL | > 10 µg/mL | > 10 µg/mL | > 10 µg/mL | > 10 µg/mL

Reference: the supplement of paper PMC9931576
